Compound potency records, mixed from different reports. Data source: NIAID ChemDB in PubChem.

Common to all: counter-tests on host proteins

Inhibition is in % at the dose shown (toxicity tests: loss of growth or viability). Conditions beyond the fields shown may differ between rows. An empty or dashed field is not shown. ICn is the concentration giving n% inhibition.

| structure | target | species | tested at | read-out | read by | result |
|---|---|---|---|---|---|---|
| C=C1C(=O)C[C@@H]2/C=C(\COC(C)=O)CC/C=C(/C=O)[C@H](OC(C)=O)[C@@H](OC(=O)C(C)CC)[C@@H]12 | Dehydrogenase | Mus musculus |  | IC50 | MTT / absorbance | 13.8 µg/mL |
| CO[P@](=O)(c1cc(C)cc(/C=C/C#N)c1)c1c(C(N)=O)[nH]c2ccc(Cl)cc12 | DNA polymerase beta | Human |  | IC50 |  | >479 µM |
| CC1(C)S[C@H]([C@H](NC(=O)Cc2ccccc2)C(=O)NCc2ccccc2)N[C@H]1C(=O)NCCNC(=O)[C@@H]1N[C@@H]([C@H](NC(=O)Cc2ccccc2)C(=O)NCc2ccccc2)SC1(C)C | Pepsin | Sus domesticus |  | IC50 | nucleotide incorporation | >500 µM |
| CCCCNC(=O)[C@H](C)C[C@H](O)[C@H](CC1CCCCC1)NC(=O)[C@@H](NC(=O)[C@@H](NC(=O)OC(C)(C)C)[C@@H](C)O)C(C)C | Pepsin |  |  | IC50 |  | 0.6 µM |
| O=c1oc(/C=C/c2cccnc2)ns1 | Proteasome | Human |  | IC50 | broth dilution / fluorescence | >10 µM |
| c1cc(CN2CCCNCCNCCCNCC2)ccc1CN1CCCNCCNCCCNCC1 | CXCR2 | Human |  | IC50 | calcium flux | >25 µg/mL |
| O=c1cc(-c2ccc(O)c(O)c2)oc2cc(O[C@@H]3O[C@H](CO)[C@@H](O)[C@H](O)[C@H]3OS(=O)(=O)O)cc(O)c12 | Topoisomerase | Molluscum contagiosum virus |  | IC50 |  | >200 µM |
| Nc1nc(N)nc(-c2ccc(OCc3ccc(Cl)cc3)cc2)n1 | Dihydrofolate reductase | Human |  | IC50 | absorbance | 83.3 µM |
| O=C(CN1C(=O)CN=C(c2ccccc2)c2ccccc21)N1CC2ON=C(Br)C2C1 | Cathepsin B | Human | 20 µM | inhibition | fluorescence | 0% |
| C[N+]1(CC2CCCCCC2)CCC(NC(=O)C2c3cc(Cl)ccc3Oc3ccc(Cl)cc32)CC1 | CCR1 | Human |  | IC50 |  | 0.00957 µM |
| CCC[C@H](NC(=O)[C@@H]1[C@H]2CCC[C@H]2CN1C(=O)[C@@H](NC(=O)[C@@H](NC(=O)c1cnccn1)C1CCCCC1)C(C)(C)C)C(=O)C(=O)NC1CC1 | Thrombin |  |  | IC90 | substrate cleavage | <1 µM |
| CCCCNC(=O)[C@H](C)C[C@H](O)[C@H](CC1CCCCC1)NC(=O)[C@@H](NC(=O)[C@H](CCCN)NC(=O)OC(C)(C)C)C(C)C | Pepsin |  |  | IC50 |  | 2.7 µM |
| O=C1CN=C(c2ccccc2)c2ccccc2N1CCC1CC(Br)=NO1 | Cathepsin B | Human | 20 µM | inhibition | fluorescence | 0% |
| O=c1onc(C(O)c2ccccc2)s1 | Proteasome | Human |  | IC50 | broth dilution / fluorescence | 20 µM |
| CCCCNC(=O)[C@H](C)C[C@H](O)[C@H](CC1CCCCC1)NC(=O)[C@@H](NC(=O)[C@H](CCCN)NC(=O)OCc1ccccc1)C(C)C | Pepsin |  |  | IC50 |  | 3.1 µM |
| O=c1oc(/C=C/c2ccccn2)ns1 | Proteasome | Human |  | IC50 | broth dilution / fluorescence | >10 µM |
| CC1(C)S[C@@H]2[C@H](NC(=O)Cc3ccccc3)C(=O)N2[C@H]1C(=O)NCCNC(=O)[C@@H]1N2C(=O)[C@@H](NC(=O)Cc3ccccc3)[C@H]2SC1(C)C | Pepsin | Sus domesticus |  | IC50 | nucleotide incorporation | >500 µM |